In data set [1] the target is MtrR (Neisseria gonorrhoeae) (UniProt P39897). In words: EMSA. The following applies: EMSA: 20 mM Tris pH 8.0, 200 mM NaCl, 10% glycerol, 1 mM TCEP, 1 ug poly(dI-dC), room temperature, 2% agarose TAE, recombinant …, residues 1-210, protein details: His6 removed by thrombin. In general terms: A gel shift assay detects complexes by their altered migration in electrophoresis.

Data set [2] concerns the target MtrR(R176A) (Neisseria gonorrhoeae) (UniProt P39897). Kind of data set: EMSA. Conditions: taurodeoxycholate 5-10 mM; EMSA: 20 mM Tris pH 8.0, 200 mM NaCl, 10% glycerol, 1 mM TCEP, 1 ug poly(dI-dC), room temperature, 2% agarose TAE; recombinant protein; residues 1-210; protein details: N-terminal His6 removed by TEV.
Data set [3] addresses MtrR(R176E) (Neisseria gonorrhoeae) (UniProt P39897). Kind of data set: EMSA. Conditions: taurodeoxycholate 5-10 mM; EMSA: 20 mM Tris pH 8.0, 200 mM NaCl, 10% glycerol, 1 mM TCEP, 1 ug poly(dI-dC), room temperature, 2% agarose TAE; recombinant protein; residues 1-210; protein details: N-terminal His6 removed by TEV.
Data set [4] addresses MtrR(W136L) (Neisseria gonorrhoeae) (UniProt P39897). In words: EMSA. The following applies: EMSA: 20 mM Tris pH 8.0, 200 mM NaCl, 10% glycerol, 1 mM TCEP, 1 ug poly(dI-dC), room temperature, 2% agarose TAE, recombinant protein, residues 1-210, protein details: N-terminal His6 removed by TEV.
The target of data set [5] is MtrR (Neisseria gonorrhoeae) (UniProt P39897). In words: fluorescence polarization. The following applies: FP: 20 mM Tris-HCl pH 8.0, 100 mM NaCl, 2.5% glycerol, 1 nM DNA, temperature not stated, recombinant protein, residues 1-210, protein details: His6 removed by thrombin.
The target of data set [6] is MtrR WT (codon-optimized, pMCSG7) (Neisseria gonorrhoeae) (UniProt P39897). In words: fluorescence polarization. The following applies: no bile salt, value assigned to WT since mutants are within 5-fold; FP: 20 mM Tris-HCl pH 8.0, 100 mM NaCl, 2.5% glycerol, 1 nM DNA, temperature not stated; recombinant protein; residues 1-210; protein details: N-terminal His6 removed by TEV. (In general: Polarisation of emitted light reports the rotation of a fluorescent probe.)

For some of these results: Negatives hold for the conditions tested. The exact form of at least one protein or probe is not confirmed. For some of these results: Weaker means in comparison with the reference protein, sequence or condition of that experiment.

Drawing on paper PMC6755732, “Structural, Biochemical, and In Vivo Characterization of MtrR-Mediated Resistance to Innate Antimicrobials by the Human Pathogen Neisseria gonorrhoeae” (Journal of Bacteriology, 2019), this text covers binding result and Kd for two sequences.

In general, Kd refers to the free concentration of one partner at which half of the binding sites on the other are occupied at equilibrium, for simple one-to-one binding.

Consider “TTTTTATCCGTGCAATCGTGTATGTAT (double strand) [mtrC (mtrCDE) operator 27-mer, unlabeled]”, for which the binding result in data set [1] (chenodeoxycholate 2-3 mM), in data set [1] (taurodeoxycholate 2-3 mM), in data set [2], in data set [3], in data set [4] (chenodeoxycholate 5-10 mM) and in data set [4] (taurodeoxycholate 5-10 mM) was “binds more weakly” throughout.
As to “TTTTTATCCGTGCAATCGTGTATGTAT (double strand) [mtrC (mtrCDE) operator 27-mer, fluorescein]”, the dissociation constant Kd came to 150 nM in data set [5] (1 mM chenodeoxycholate); 500 nM in data set [5] (1 mM taurodeoxycholate); 90 nM in data set [5] (5 mM glycocholate); 130 nM in data set [5] (5 mM taurocholate); 1200 nM in data set [5] (10 mM CAPS pH 8.0); 110 nM in data set [5] (10 mM glycocholate). In addition, the dissociation constant Kd in data set [5] (10 mM taurocholate) was found to be 310 nM; in data set [6], 38 nM. Also, the binding result in data set [5] (5 mM chenodeoxycholate) and in data set [5] (5 mM taurodeoxycholate) was “no binding” in each case.
